# Test system: SARS Coronavirus 2 recombinant with NanoLuc (SARS-CoV2-NLuc) in A549-hACE2 cells
# Test: A549-hACE2 SARS-CoV2-NLuc 384-well assay
# Assay type: cell-based
# Details: read-out: EC50 SARS CoV2 NanoLuc A549 384, Table D3
smiles,measurement,value
"N#C[C@@]1(c2ccc3c(N)ncnn23)O[C@H](COC(=O)OC23CC(C(F)(F)F)(C2)C3)[C@@H](O)[C@H]1O [Compound 139, [(2R,3S,4R,5R)-5-(4-aminopyrrolo[2,1-f][1,2,4]triazin-7-yl)-5-cyano-3,4-dihydroxy-tetrahydrofuran-2-yl]methyl [3-(trifluoromethyl)-1-bicyclo[1.1.1]pentanyl]carbonate]",EC50,808 nM

# Reference: patent US12448383B2, “Compounds and methods for treatment of viral infections” (priority 2022, dated 2025)
